According to PubChem BioAssay AID540336 (Broad Institute, 2011):
This is a selection; strong and weak results do not stand in their true shares. The source made the active and inactive calls.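 Rule for the calls: active = inhibition of at least 50% in every replicate; inconclusive = best replicate reaches 50% inhibition but some replicates fall short; inactive = the rest.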

Amino acid sequences for entries named in this document (tags omitted).
UniProt Q5AAJ8, whole entry: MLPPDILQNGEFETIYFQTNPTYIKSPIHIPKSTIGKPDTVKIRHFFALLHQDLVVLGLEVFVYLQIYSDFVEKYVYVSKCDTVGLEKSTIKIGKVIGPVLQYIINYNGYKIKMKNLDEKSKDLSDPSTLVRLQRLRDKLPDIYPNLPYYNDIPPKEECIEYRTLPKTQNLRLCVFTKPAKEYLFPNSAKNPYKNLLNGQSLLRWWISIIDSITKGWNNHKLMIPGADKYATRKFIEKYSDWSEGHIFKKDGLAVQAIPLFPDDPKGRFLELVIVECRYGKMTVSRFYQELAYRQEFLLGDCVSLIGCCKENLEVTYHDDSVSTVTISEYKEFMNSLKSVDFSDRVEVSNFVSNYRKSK

target: Histone acetyltransferase RTT109 (Candida albicans (strain SC5314 / ATCC MYA-2876)) (UniProt Q5AAJ8); assay: Rtt109-Vps75 histone acetyltransferase blockade – biochemical, ThioGlo CoA-SH fluorescence, plate reader, primary screen (AID 540336); conditions: purified Rtt109/Vps75, ThioGlo CoA-SH fluorescence, 4 h; at 34.9 µM; stronger effect = higher value

**Q.** With `CC(C)(C)OC(=O)N1CCC(N(C(=O)c2ccccc2)c2ccc(Cl)cc2)CC1` as the compound, how does the inhibition read?
**A.** inactive: -2.63%

**Q.** With `N#Cc1ccc(C(=O)NCC2(N3CCCCC3)CCCCC2)cc1` as the compound, how does the inhibition read?
**A.** inactive: 0.375%

**Q.** For `c1ccc(CN2CCC(Nc3ccccc3)CC2)cc1`, which inhibition is on record?
**A.** inactive: 7.46%

**Q.** Which inhibition does the source give for `CCCN1CCC(Nc2cc(OC)cc(OC)c2)CC1` here?
**A.** inactive: -8.48%

**Q.** With `Cc1cc(N(CCCl)CCCl)ccc1C=O` as the compound, how does the inhibition read?
**A.** inactive: 1.31%

**Q.** With `CN(C)C1(CNC(=O)c2cccc(C#N)c2)CCCCC1` as the compound, how does the inhibition read?
**A.** inactive: -1.4%

**Q.** `O=C(NCC1(N2CCOCC2)CCCCC1)c1cc(Br)ccc1Cl` was tested. Which inhibition did it give?
**A.** inactive: 8.51%

**Q.** How did the inhibition turn out when `COc1cc(C(=O)NCC2(N3CCOCC3)CCCCC2)cc(OC)c1C` was run?
**A.** inactive: 2.27%

**Q.** For `N/C(=N\O)c1c(N)no[n+]1[O-]`, which inhibition is on record?
**A.** inactive: -9.26%

**Q.** Which inhibition does the source give for `CCOC(=O)N1CCC(Nc2ccc(C)cc2)CC1` here?
**A.** inactive: -1.44%

**Q.** Which inhibition does the source give for `O=C(OC1CN2CCC1CC2)C1c2ccccc2C=Cc2ccccc21` (configuration not stated) here?
**A.** inactive: 6.1%

**Q.** For `CCOc1ncccc1C(=O)NCC1(N2CCOCC2)CCCCC1`, which inhibition is on record?
**A.** inactive: 1.99%

**Q.** Which inhibition does the source give for `CN1CCC(Nc2ccc(F)c(Cl)c2)CC1` here?
**A.** inactive: -1.12%

**Q.** `CCCOc1ccc(C(=O)NCC2(N(C)C)CCCCC2)cc1` was tested. Which inhibition did it give?
**A.** inactive: 0.439%

**Q.** Which inhibition does the source give for `CC(C)(C)OC(=O)N1CCC(Nc2ccccc2)CC1` here?
**A.** inactive: -1.28%

**Q.** For `O=C(O)C1(Nc2ccccc2)CCN(Cc2ccccc2)CC1`, which inhibition is on record?
**A.** inactive: 3.96%

**Q.** For `CCC(CO)(C(=O)OC1CN2CCC1CC2)c1ccccc1` (configuration not stated), which inhibition is on record?
**A.** inactive: -25.4%

**Q.** `COc1cc(OC)cc(C(=O)NCC2(N3CCOCC3)CCCCC2)c1` was tested. Which inhibition did it give?
**A.** inactive: -15.3%

**Q.** How did the inhibition turn out when `COc1cccc(C(=O)N(c2cc(C)cc(C)c2)C2CCN(C(=O)OC(C)(C)C)CC2)c1` was run?
**A.** inactive: -1.2%

**Q.** Which inhibition does the source give for `CN1CCC(Nc2ccc(Cl)cc2)CC1` here?
**A.** inactive: -6.81%

**Q.** How did the inhibition turn out when `COc1cc(OC)cc(C(=O)NCC2(N3CCCCC3)CCCCC2)c1` was run?
**A.** inactive: 2.72%

**Q.** Which inhibition does the source give for `CC(=O)N(c1ccccc1)C1CCNCC1` here?
**A.** inactive: 9.79%

**Q.** With `Cc1ccc(NC2(C#N)CCN(Cc3ccccc3)CC2)cc1` as the compound, how does the inhibition read?
**A.** inactive: 0.738%

**Q.** Which inhibition does the source give for `Cc1ccc(C(=O)NCC2(N3CCCCC3)CCCCC2)o1` here?
**A.** inactive: -11.9%

**Q.** How did the inhibition turn out when `Fc1ccccc1NC1CCN(Cc2ccccc2)CC1` was run?
**A.** inactive: -3.05%

**Q.** How did the inhibition turn out when `Cc1ccccc1NC1(C#N)CCN(Cc2ccccc2)CC1` was run?
**A.** inactive: 1.55%

**Q.** Which inhibition does the source give for `CCN1CCC(Nc2cccc(F)c2)CC1` here?
**A.** inactive: 0.148%

**Q.** How did the inhibition turn out when `O=C(NCC1(N2CCCCC2)CCCCC1)c1ccco1` was run?
**A.** inactive: 0.796%

**Q.** With `CN(C)c1ccc(C(=O)NCC2(N3CCCCC3)CCCCC2)cc1` as the compound, how does the inhibition read?
**A.** inactive: 7.74%

**Q.** Which inhibition does the source give for `Cn1c(=O)[nH]cc(N(CCCl)CCCl)c1=O` here?
**A.** inactive: -15.3%

**Q.** With `CCOc1ccc(C)cc1CN(CCCl)CCCl` as the compound, how does the inhibition read?
**A.** inactive: 2.33%

**Q.** `O=C1CCN(Cc2ccccc2)CC1` was tested. Which inhibition did it give?
**A.** inactive: 3.08%

**Q.** With `O=P1(N(CCCl)CCCl)SCCCS1` as the compound, how does the inhibition read?
**A.** inactive: -5.8%

**Q.** `CCCCOc1ccc(C(=O)NCC2(N3CCOCC3)CCCCC2)cc1` was tested. Which inhibition did it give?
**A.** inactive: 5.14%

**Q.** With `O=C(NCC1(N2CCCCC2)CCCCC1)c1ccc(F)cc1` as the compound, how does the inhibition read?
**A.** inactive: -6.86%

**Q.** How did the inhibition turn out when `COc1ccc(NC2CCN(CCc3ccccc3)CC2)c(OC)c1` was run?
**A.** inactive: -17.1%

**Q.** With `CCOC(=O)N1CCC(Nc2ccc(F)cc2)CC1` as the compound, how does the inhibition read?
**A.** inactive: -3.2%

**Q.** For `CCOC(=O)N1CCC(Nc2cccc(C)c2)CC1`, which inhibition is on record?
**A.** inactive: -5.8%

**Q.** For `COc1cc(C(=O)NCC2(N(C)C)CCCCC2)ccc1OC(F)F`, which inhibition is on record?
**A.** inactive: -7.57%

**Q.** How did the inhibition turn out when `O=C(NCC1(N2CCCCC2)CCCCC1)c1ccc(=O)[nH]c1` was run?
**A.** inactive: 2.33%

**Q.** With `O=C(NCC1(N2CCCCC2)CCCCC1)c1cccs1` as the compound, how does the inhibition read?
**A.** inactive: 13.9%

**Q.** Which inhibition does the source give for `COc1ccc(C(=O)NCC2(N3CCCCC3)CCCCC2)c(OC)c1OC` here?
**A.** inactive: 9.14%

**Q.** `CC(C)(C)OC(=O)N1CCC(N(C(=O)c2ccccc2)c2ccc(F)cc2)CC1` was tested. Which inhibition did it give?
**A.** inactive: -1.4%

**Q.** Which inhibition does the source give for `CSc1ccccc1C(=O)NCC1(N2CCCCC2)CCCCC1` here?
**A.** inactive: -3.78%

**Q.** How did the inhibition turn out when `Cc1cccc(NC2(C#N)CCN(Cc3ccccc3)CC2)c1` was run?
**A.** inactive: 1.3%

**Q.** Which inhibition does the source give for `O=C(NCC1(N2CCOCC2)CCCCC1)c1cc2ccccc2o1` here?
**A.** inactive: -9.44%

**Q.** Which inhibition does the source give for `O=C(NCC1(N2CCCCC2)CCCCC1)c1ccc(Cl)nc1` here?
**A.** inactive: -8.85%

**Q.** With `Cc1cc(C)cc(N(C(=O)c2ccccc2)C2CCN(C(=O)OC(C)(C)C)CC2)c1` as the compound, how does the inhibition read?
**A.** inactive: -4.4%

**Q.** With `CCOC(=O)N1CCC(Nc2ccc(OC)cc2)CC1` as the compound, how does the inhibition read?
**A.** inactive: -5.76%

**Q.** How did the inhibition turn out when `N#CC1(Nc2ccccc2)CCN(Cc2ccccc2)CC1` was run?
**A.** inactive: 4.6%

**Q.** For `O=C(NCC1(N2CCCCC2)CCCCC1)c1ccc(Cl)s1`, which inhibition is on record?
**A.** inactive: 0.397%

**Q.** With `O=C(OC1CN2CCC1CC2)C1c2ccccc2Oc2ccccc21` (configuration not stated) as the compound, how does the inhibition read?
**A.** inactive: 5.49%

**Q.** `COc1ccc(Cl)cc1C(=O)NCC1(N2CCOCC2)CCCCC1` was tested. Which inhibition did it give?
**A.** inactive: 9.06%

**Q.** `COc1ccc(CN(CCCl)CCCl)cc1Cl` was tested. Which inhibition did it give?
**A.** inactive: -10.6%

**Q.** For `CN(C)c1cccc(C(=O)NCC2(N3CCCCC3)CCCCC2)c1`, which inhibition is on record?
**A.** inactive: -4.58%

**Q.** How did the inhibition turn out when `CC(C)c1ccc(NC2CCN(C(=O)OC(C)(C)C)CC2)cc1` was run?
**A.** inactive: -5.5%

**Q.** For `COc1cc(OC)c(C(=O)NCC2(N(C)C)CCCCC2)cc1OC`, which inhibition is on record?
**A.** inactive: 9.76%

**Q.** How did the inhibition turn out when `O=C(NCC1(N2CCOCC2)CCCCC1)c1cc(F)c(F)cc1Cl` was run?
**A.** inactive: -21.5%

**Q.** For `CN1CCC(Nc2cccc(F)c2)CC1`, which inhibition is on record?
**A.** inactive: -1.49%

**Q.** `O=C(NCC1(N2CCCCC2)CCCCC1)c1cncc(Br)c1` was tested. Which inhibition did it give?
**A.** inactive: -7.87%

**Q.** `CCCOc1ccc(C(=O)NCC2(N(C)C)CCCCC2)cc1OC` was tested. Which inhibition did it give?
**A.** inactive: -1.03%

**Q.** Which inhibition does the source give for `O=C(NCC1(N2CCCCC2)CCCCC1)c1ccc(OC(F)F)cc1` here?
**A.** inactive: 3.07%

**Q.** Which inhibition does the source give for `CSc1ccc(C(=O)NCC2(N3CCOCC3)CCCCC2)cc1` here?
**A.** inactive: 6.29%

**Q.** For `O=C(NCC1(N2CCCCC2)CCCCC1)c1cccc([N+](=O)[O-])c1`, which inhibition is on record?
**A.** inactive: 7.19%

**Q.** With `CCN1CCC(Nc2ccc(Cl)cc2)CC1` as the compound, how does the inhibition read?
**A.** inactive: -6.87%

**Q.** Which inhibition does the source give for `N#CC1(Nc2ccccc2)CCN(CCc2ccccc2)CC1` here?
**A.** inactive: 9.45%

**Q.** How did the inhibition turn out when `O=C(NCC1(N2CCCCC2)CCCCC1)c1cccc(C(F)(F)F)c1` was run?
**A.** inactive: -3.88%

**Q.** How did the inhibition turn out when `CN1CCN(CCOC(=O)C(O)(c2ccccc2)c2ccccc2)CC1` was run?
**A.** inactive: -1.31%

**Q.** Which inhibition does the source give for `COc1ccc(NC2CCN(C(=O)OC(C)(C)C)CC2)cc1` here?
**A.** inactive: -11.1%

**Q.** `CC(C)c1ccc(C(=O)NCC2(N3CCOCC3)CCCCC2)cc1` was tested. Which inhibition did it give?
**A.** inactive: 1.31%

**Q.** `COc1cc(C(=O)NCC2(N3CCCCC3)CCCCC2)ccc1OC(F)F` was tested. Which inhibition did it give?
**A.** inactive: -5.24%

**Q.** For `O=C(NCC1(N2CCOCC2)CCCCC1)c1cc(=O)[nH]c2ccccc12`, which inhibition is on record?
**A.** inactive: 1.12%
